Assays:
Experiment in all cases: ELISA
[1] = molecular target: SARS-CoV-2 Omicron BA.1 RBD (SARS-CoV-2 Omicron BA.1)
[2] = molecular target: SARS-CoV-2 Beta RBD (SARS-CoV-2 Beta)
[3] = molecular target: SARS-CoV-2 Omicron BA.2 RBD (SARS-CoV-2 Omicron BA.2)

Measured: EC50

C102 IgG
> 10 µg/mL: [1] | [2] | [3]

C144 IgG
> 10 µg/mL: [1] | [2] | [3]
